According to US11098090B2, “Mycobacteria tuberculosis chaperonin 60.1 peptides and uses thereof” (Revolo Biotherapeutics Limited, priority 2017, dated 2021):
Entries after “also recorded” stand apart in the source; their conditions may differ.

Key:
[1] = Plasma stability at 37° C., rat plasma; type: in vitro ADME; details: for Plasma half life Rat: Table 7, same conditions as Example 3
Protocol: (§1) Plasma Stability in Mouse, Rat and Human Plasma at 37° C.
(§2) Plasma: mouse (C57 Black 6 Male), rat (Sprague Dawley) and human containing heparin as an anti-coagulant.
(§3) Plasma samples in duplicate were incubated with peptide at 3 μM in a 600 μl volume at 37° C. with shaking. 50 μl aliquots were withdrawn after 2, 5, 30, 60 and 120 mins and quenched into 150 μl of ice-cold methanol containing the internal standard (tolbutamide). Samples were stored at −20° C. for 2 hours to allow protein precipitation. Samples were then centrifuged at 2500×g and the resulting supernatants transferred to a 96 well plate for LC-MS/MS analysis. Thalf was calculated in all matrices for each peptide.

[2] = Plasma stability at 37° C., mouse plasma; type: in vitro ADME
Protocol: as §1, §2, §3

[3] = Plasma stability, overall statements for mouse, rat and human plasma; type: in vitro ADME
Protocol: as §1, §2, §3

[4] = system: LPS induced lung neutrophil influx; assay: LPS mouse model of lung inflammation (BAL neutrophil count); type: in vivo; details: 50 pg/mouse, i.v
[5] = Plasma stability at 37° C., human plasma; type: in vitro ADME
Protocol: as §1, §2, §3

[6] = Table 3, 37° C., peptide 3 μM, read-out: Plasma Half Life (Th) Rat
[7] = Table 3, 37° C., peptide 3 μM, read-out: Plasma Half Life (Th) Mouse
[8] = Table 3, 37° C., peptide 3 μM, read-out: Plasma Half Life (Th) Man
[9] = Table 7, same conditions as Example 3

Row | Compound | half-life [1, 6] | Plasma half life Rat [1] | half-life [2, 7] | plasma stability / half-life (Th) compared with parent peptide SEQ ID NO: 17 [3] | anti-inflammatory activity / efficacy in the LPS mouse lung inflammation model [4] | half-life [5, 8] | Plasma half life Mouse [2, 9] | Plasma half life Man [5, 9] | half-life ([1]; Table 7, same conditions as Example 3, read-out: Plasma half life Rat) | half-life ([2]; Table 7, same conditions as Example 3, read-out: Plasma half life Mouse) | half-life ([5]; Table 7, same conditions as Example 3, read-out: Plasma half life Man)
1 | CC(C)C[C@H](NC(=O)CNC(=O)[C@H](Cc1c[nH]cn1)NC(=O)CCN)C(=O)N[C@@H](CC(N)=O)C(=O)N[C@H](C(=O)N[C@@H](CC(N)=O)C(=O)N[C@H](C(=O)N[C@@H](CC(C)C)C(=O)N[C@@H](CO)C(=O)N[C@@H](Cc1ccc(O)cc1)C(=O)NCC(=O)N[C@@H](CC(=O)O)C(N)=O)[C@@H](C)O)C(C)C [SEQ ID NO: 18, bAla-HGLNVNTLSYGD-NH2] | > 6 h | >6 h | 0.617 h | improved the plasma stability; also recorded: significant improvement in plasma half-life | retains anti-inflammatory activity | 2.85 h | – | – | – | – | –
2 | CC(C)C[C@H](NC(=O)CNC(=O)[C@@H](N)Cc1c[nH]cn1)C(=O)N[C@@H](CC(N)=O)C(=O)N[C@H](C(=O)N[C@@H](CC(N)=O)C(=O)N[C@H](C(=O)N[C@@H](CC(C)C)C(=O)N[C@@H](CO)C(=O)N[C@@H](Cc1ccc(O)cc1)C(=O)NCC(=O)N[C@@H](CC(=O)O)C(=O)NCCC(N)=O)[C@@H](C)O)C(C)C [SEQ ID NO: 21, HGLNVNTLSYGD-bAla-NH2] | 1.25 h | – | 1.78 h | improved the plasma stability; also recorded: superior Th | loose efficacy | 2.52 h | – | – | – | – | –
3 | CC(C)C[C@H](NC(=O)CNC(=O)[C@H](Cc1c[nH]cn1)NC(=O)CCN)C(=O)N[C@@H](CC(N)=O)C(=O)N[C@H](C(=O)N[C@@H](CC(N)=O)C(=O)N[C@H](C(=O)N[C@@H](CC(C)C)C(=O)N[C@@H](CO)C(=O)N[C@@H](Cc1ccc(O)cc1)C(=O)NCC(=O)N[C@@H](CC(=O)O)C(=O)NCCC(N)=O)[C@@H](C)O)C(C)C [SEQ ID NO: 22, bAla-HGLNVNTLSYGD-bAla-NH2] | > 6 h | >6 h | > 6 h | improved the plasma stability; also recorded: superior Th; also recorded: improved the stability even further | loose efficacy; also recorded: loss of biological activity | > 6 h | >6 h | >6 h | – | – | –
4 | CC(C)C[C@H](NC(=O)CNC(=O)[C@H](Cc1c[nH]cn1)NC(=O)COCCOCCN)C(=O)N[C@@H](CC(N)=O)C(=O)N[C@H](C(=O)N[C@@H](CC(N)=O)C(=O)N[C@H](C(=O)N[C@@H](CC(C)C)C(=O)N[C@@H](CO)C(=O)N[C@@H](Cc1ccc(O)cc1)C(=O)NCC(=O)N[C@@H](CC(=O)O)C(N)=O)[C@@H](C)O)C(C)C [SEQ ID NO: 24, O2Oc-HGLNVNTLSYGD-NH2] | – | – | – | – | – | – | – | – | > 6 h | 0.85 h | 4.32 h
